Tests used:
[1] = test system: HCV genotype 1 NS3 resistance-associated variants in GT 1a (H77); assay: Replicon activity against NS3 resistance-associated variants, GT 1a; details: GT1a variants that conferred resistance to other HCV protease inhibitors
[2] = test system: NS5A inhibitor and NS5B inhibitor resistance-associated variants in GT 1b; details: e.g. L28T, Y93H, S282T, C316Y, Y448H and S556G in GT 1b
[3] = test system: replicon containing GT3a NS3 protease; assay: Resistant colony selection in replicon containing GT3a NS3 protease; details: concentrations ≥ 100-fold over its EC50 value
[4] = test system: HCV genotype 1 NS3 resistance-associated variants in GT 1b (Con-1); assay: Replicon activity against NS3 resistance-associated variants, GT 1b; details: GT1b variants that conferred resistance to other HCV protease inhibitors

In the case of CC(C)(C)[C@@H]1NC(=O)O[C@@H]2CCC[C@H]2OC/C=C/C(F)(F)c2nc3ccccc3nc2O[C@@H]2C[C@@H](C(=O)N[C@]3(C(=O)NS(=O)(=O)C4(C)CC4)C[C@H]3C(F)F)N(C2)C1=O, the “activity against common variants at NS3 amino acid positions 155 and 168” value [1] is reported as “retained its activity”, the “activity against NS5A inhibitor and NS5B inhibitor resistance-associated variants” value [2] is reported as “potent activity” and the colonies selected [3] is reported as “very few colonies”. The “activity against common variants at NS3 amino acid positions 155 and 168” value [4] was “retained its activity”.
